Anti-infective test results gathered from many reports (values: NIAID ChemDB through PubChem).

Shared fields: target-level tests

ICn: concentration for n% inhibition. Lines come from different laboratories, so protocols vary. Blank or dashed fields: not listed here. Inhibition is in % at the dose shown (toxicity tests: loss of growth or viability).

compound	target	measure	strain	agent	dose	result
CC(=O)c1ccc(-c2ccc(C=C3SC(=S)N(c4ccc(C(=O)O)cc4)C3=O)o2)s1	NS5 polymerase	IC50		Bovine viral diarrhea virus		≤1 µM
O=C(Nc1nnc(NCc2ccc3c(c2)OCO3)s1)c1cc2ccccc2s1	Polymerase	IC50		Human cytomegalovirus		>25 µM
NC(=O)c1ccc(-c2cncc(NCc3ccccc3)n2)cc1	UL97 kinase	IC50		Cytomegalovirus		<1 µM
Nc1nc(N)c2nc(Cc3ccc4ccccc4c3)c(Cc3ccc4ccccc4c3)nc2n1	Dihydrofolate reductase	IC50	TYPE 2	Cryptosporidium parvum		>10 µM
COc1ccccc1C(=O)Nc1nnc(NCC2CCCCC2)s1	Polymerase	IC50		Human cytomegalovirus		>25 µM
CC(=O)c1cccc(-c2cncc(N3CCN(c4ccccc4)CC3)n2)c1	UL97 kinase	IC50		Cytomegalovirus		<10 µM
Nc1nc(N)c2c(n1)CCc1ccc(Cl)cc1-2	Dihydrofolate reductase	IC50	TYPE 2	Cryptosporidium parvum		>10 µM
O=C1NC(=S)SC1=Cc1ccc(-c2cccs2)s1	NS5 polymerase	IC50		Bovine viral diarrhea virus		≤1 µM
O=C(/C=C/c1ccccc1Cl)Nc1nnc(NCc2ccncc2)s1	Polymerase	IC50		Human cytomegalovirus		>25 µM
CN(Cc1ccc2nc(N)nc(N)c2n1)c1ccc(C(=O)N2CCOCC2)cc1	Dihydrofolate reductase	IC50	TYPE 1	Cryptosporidium parvum		0.65 µM
Cc1ccc(N2CCN(c3cncc(-c4ccc(F)cc4)n3)CC2)cc1	UL97 kinase	inhibition		Cytomegalovirus	1 µM	<50%
O=C(O)c1ccc(N2C(=O)C(=Cc3ccc(-c4c(F)c(F)nc(F)c4F)o3)SC2=S)cc1	NS5 polymerase	IC50		Bovine viral diarrhea virus		≤1 µM
COc1ccc(OC)c(CC2CCc3nc(N)nc(N)c3C2)c1	Dihydrofolate reductase	IC50	TYPE 1	Cryptosporidium parvum		0.33 µM
COc1ccc(N2CCN(c3cncc(-c4cccc(C#N)c4)n3)CC2)cc1OC	UL97 kinase	IC50		Cytomegalovirus		<100 µM
Cc1c(Cc2ccc(Cl)c(Cl)c2)sc2nc(N)nc(N)c12	Dihydrofolate reductase	IC50	TYPE 1	Cryptosporidium parvum		>10 µM
Cc1cc(-c2ccc(C=C3SC(=S)N(c4ccc(C(=O)O)cc4)C3=O)o2)oc1C	NS5 polymerase	IC50		Bovine viral diarrhea virus		≤1 µM
COc1cccc2nc(N)nc(N)c12	Dihydrofolate reductase	IC50	TYPE 2	Cryptosporidium parvum		0.56 µM
CC(C)c1cc(C(C)C)c(C(=O)Nc2nnc(NCCN3CCCC3)s2)c(C(C)C)c1	Polymerase	IC50		Human cytomegalovirus		>25 µM
COc1ccc(-c2cncc(N3CCC(c4ccccc4)CC3)n2)cc1F	UL97 kinase	inhibition		Cytomegalovirus	10 µM	>15%
O=C(/C=C/c1ccccc1)Nc1nnc(NCc2ccc3c(c2)OCO3)s1	Polymerase	IC50		Human cytomegalovirus		>25 µM
COc1ccccc1CC1CCc2nc(N)nc(N)c2C1	Dihydrofolate reductase	IC50	TYPE 1	Cryptosporidium parvum		0.18 µM